Data as given in ChEMBL document CHEMBL2375250, “Efficient synthesis of new (R)-2-amino-1-butanol derived ureas, thioureas and acylthioureas and in vitro evaluation of their antimycobacterial activity” (Eur J Med Chem, 2013).
Converted amounts (≈) assume the structure as drawn.

Assays:
[1] = system: Mycobacterium tuberculosis; assay: Antimycobacterial activity against multidrug-resistant Mycobacterium tuberculosis 43 assessed as growth inhibition after 45 days by Lowenstein-Jensen method
[2] = system: Mycobacterium tuberculosis; assay: Antimycobacterial activity against Mycobacterium tuberculosis H37Rv assessed as growth inhibition after 45 days by Lowenstein-Jensen method
[3] = Selectivity index, ratio of IC50 for HEK293T cells to MIC for Mycobacterium tuberculosis H37Rv

**Q.** What does the source list for `CC[C@H](CO)NC(=S)NP(=O)(c1ccccc1)c1ccccc1`?
**A.** MIC [1]: 11.5 µM (≈ 4 µg/mL); MIC [2]: 5.74 µM (≈ 2 µg/mL); Selectivity Index [3]: 31.3
